Article PMC4491176, “Caenorhabditis elegans is a useful model for anthelmintic discovery” (Nature Communications, 2015)

Chains of the proteins cited; added tags and fusions are not shown. Lines headed by an entry give the natural chain unless they say otherwise; changes in a name come on top. Residues count along the entry.
UniProt O62215: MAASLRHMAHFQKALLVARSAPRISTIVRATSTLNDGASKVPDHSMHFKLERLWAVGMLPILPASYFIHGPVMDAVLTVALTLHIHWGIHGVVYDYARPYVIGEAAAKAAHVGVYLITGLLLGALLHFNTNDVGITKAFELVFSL
UniProt P41956: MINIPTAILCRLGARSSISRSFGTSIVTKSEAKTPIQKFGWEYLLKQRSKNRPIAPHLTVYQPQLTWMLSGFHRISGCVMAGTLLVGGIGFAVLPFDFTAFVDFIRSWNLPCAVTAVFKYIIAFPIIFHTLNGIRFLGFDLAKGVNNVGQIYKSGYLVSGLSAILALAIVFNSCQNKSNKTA
UniProt Q09508, 32-646 limits assumed: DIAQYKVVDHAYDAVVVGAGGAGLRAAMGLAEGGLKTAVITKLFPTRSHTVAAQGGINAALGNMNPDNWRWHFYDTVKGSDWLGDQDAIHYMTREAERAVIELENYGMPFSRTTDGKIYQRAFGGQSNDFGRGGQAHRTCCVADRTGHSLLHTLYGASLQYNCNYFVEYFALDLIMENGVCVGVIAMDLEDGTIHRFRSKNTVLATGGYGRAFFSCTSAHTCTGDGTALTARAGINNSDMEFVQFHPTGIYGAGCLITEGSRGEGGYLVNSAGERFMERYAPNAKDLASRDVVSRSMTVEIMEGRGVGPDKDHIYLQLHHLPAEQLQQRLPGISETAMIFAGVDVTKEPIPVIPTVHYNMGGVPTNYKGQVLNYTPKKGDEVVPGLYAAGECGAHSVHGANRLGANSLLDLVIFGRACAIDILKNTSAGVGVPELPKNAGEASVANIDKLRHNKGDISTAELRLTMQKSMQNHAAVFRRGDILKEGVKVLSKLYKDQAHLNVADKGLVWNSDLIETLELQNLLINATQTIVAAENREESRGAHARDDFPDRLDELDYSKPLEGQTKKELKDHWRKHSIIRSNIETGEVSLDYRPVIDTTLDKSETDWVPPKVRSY
UniProt Q09545: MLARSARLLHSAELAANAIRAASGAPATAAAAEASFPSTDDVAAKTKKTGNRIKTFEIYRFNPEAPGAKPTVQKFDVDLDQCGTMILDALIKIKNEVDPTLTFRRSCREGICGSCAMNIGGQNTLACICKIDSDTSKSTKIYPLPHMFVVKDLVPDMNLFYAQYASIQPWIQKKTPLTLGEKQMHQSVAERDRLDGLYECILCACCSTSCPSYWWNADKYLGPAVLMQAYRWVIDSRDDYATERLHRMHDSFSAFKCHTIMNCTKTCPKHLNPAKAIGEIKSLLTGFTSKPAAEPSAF

Target: wild-type C. elegans complex II (Caenorhabditis elegans, UniProt O62215+P41956+Q09508+Q09545)
Test: Cell-free Complex II functional assay, mitochondria from wild-type (N2) worms
Assay type: biochemical
Conditions: read-out: In vitro Complex II IC50, strain N2, SDHC residue change none

COc1[nH]c(=O)c(C(=O)[C@@H](C)C[C@H](C)[C@@H](Cl)CCl)c(O)c1OC [Atpenin A5]
IC50: 1.68 µM
